Anti-infective test results gathered from many reports (values: NIAID ChemDB through PubChem).

Shared fields: whole-cell or culture tests; species: HIV-1; cell line: MT-4; read-out: EC50

Neighbouring rows are from separate reports. ECn is the concentration giving n% inhibition of infection, replication or growth.

Cc1cn([C@H]2C[C@H](N=[N+]=[N-])[C@@H](CO)O2)c(=O)[nH]c1=O ; strain or isolate: IIIB ; value: 0.017 µM
N#Cc1ccc(Nc2nccc(C(O)c3ccc4ccccc4c3)n2)cc1 ; mutations: K103N/Y181C ; method: MTT ; value: >35.5 µM
CC(C)=CCN1Cc2cc(Cl)cc3[nH]c(=S)n(c23)C[C@@H]1C ; strain or isolate: T3-16(RT-Y181C) ; mutations: RT-Y181C ; method: cytopathic effect / XTT ; value: 2.8 µM
C1CNCCNCCCN[C@H]([C@@H]2CNCCCNCCNCCCN2)CNC1 ; strain or isolate: RF ; method: cytopathic effect / MTT ; value: 0.29 µM
Cc1cn([C@H]2C[C@H](N=[N+]=[N-])[C@@H](CO)O2)c(=O)[nH]c1=O ; strain or isolate: HE-NEV ; method: cytopathic effect / MTT ; setting: 5 d ; value: 0.029 µM
[N-]=[N+]=Nc1ccc2c(c1)SC(=N)N1CCCN=C21 ; strain or isolate: IIIB ; method: MTT ; value: 5.3 µM
Cc1cc(C)cc(S(=O)(=O)c2c(C(N)=O)[nH]c3ccc(Cl)cc23)c1 ; strain or isolate: IIIB ; method: cytopathic effect / MTT ; value: 0.006 µM
CCc1cc(CCc2nc3c(Cl)ccc(Cl)c3o2)c(=O)[nH]c1C ; strain or isolate: IIIB ; method: p24 ; value: <0.05 µM
Fc1cccc(F)c1CCNC(=S)Nc1ccc(Br)cn1 ; strain or isolate: IIIB ; method: cytopathic effect ; value: 0.005 µM
CCc1cc(CCc2nc3ccccc3o2)c(=S)[nH]c1C ; strain or isolate: IIIB ; method: p24 ; value: <0.2 µM
CCc1cc(NCc2nc3c(Cl)ccc(Cl)c3o2)c(=O)[nH]c1C ; strain or isolate: T3-16(RT-Y181C) ; mutations: RT-Y181C ; method: cytopathic effect / XTT ; value: >10 µM
Cc1cc(C#N)cc(C)c1Oc1nc(Nc2ccc(C#N)cc2)nc(N)c1Br ; strain or isolate: IIIB ; mutations: NNRTI-resistant (RT Y181C) ; method: MTT ; value: 0.0157 µM
Cc1cn([C@@H]2O[C@H](CO[Si](C(C)(C)C)(C(C)(C)C)C(C)(C)C)C3(OS(=O)(=O)C=C3N)[C@H]2O[Si](C)(C)C(C)(C)C)c(=O)n(C)c1=O ; strain or isolate: IIIB ; method: syncytia ; value: >30 µM
N=C1Sc2cc(-c3cccc(O)c3)ccc2C2=NCCCN12 ; strain or isolate: IIIB ; method: MTT ; value: 0.96 µM
CC(C)c1nc(CN(C)C(=O)N[C@H](C(=O)N[C@@H](Cc2ccccc2)C[C@H](O)[C@H](Cc2ccccc2)NC(=O)OCc2cncs2)C(C)C)cs1 ; strain or isolate: NL4-3 ; value: 0.08 µM
O=c1[nH]c(=O)n([C@H]2C=C[C@@H](CO)O2)cc1C#CCOC1CCCCO1 ; strain or isolate: IIIB ; method: RT activity ; value: >100 µM
Cc1ccnc2c1NC(=O)c1cccnc1N2C1CC1 ; strain or isolate: IIIB Recombinant ; value: 0.05 µM
Cc1cn([C@H]2C[C@H](N=[N+]=[N-])[C@@H](CO)O2)c(=O)[nH]c1=O ; strain or isolate: IIIB ; method: cytopathic effect / MTT ; value: 0.033 µg/mL
Cc1cc(C)cc(S(=O)(=O)c2c(C(=O)NNCCO)[nH]c3ccc(Cl)cc23)c1 ; mutations: RT-Y181C ; method: cytopathic effect / MTT ; value: 0.01 µM
Nc1ccn([C@H]2CC[C@@H](CO)O2)c(=O)n1 ; strain or isolate: HXB2-D50(RT-I50T) ; mutations: RT-I50T ; method: p24 ; value: 0.48 µM
CCc1cc(OCc2nc3c(Cl)ccc(Cl)c3o2)c(=O)[nH]c1C ; strain or isolate: IIIB ; method: p24 ; value: <0.2 µM
CC(=O)Oc1ccc(/C=C/C(=O)O[C@H](C(=O)O)[C@H](OC(=O)/C=C/c2ccc(OC(C)=O)c(OC(C)=O)c2)C(=O)O)cc1OC(C)=O ; strain or isolate: NL4-3 ; method: cytopathic effect / MTT ; value: 7.8 µM
COc1c(O)c(Cl)c2c(c1OC)-c1c(c(Cl)c(O)c(OC)c1OC)C[C@H](C)[C@H](C)C2 ; strain or isolate: 1506-RS (RT-Y188L) ; mutations: RT-Y188L ; method: cytopathic effect / MTT ; value: >20 µM
COC(=O)C1CSC(c2cccnc2)N1S(=O)(=O)c1cccc2c(N(C)C)cccc12 ; strain or isolate: IIIB ; method: cytopathic effect / MTT ; value: >1000 µM
Fc1cccc(F)c1[C@H]1SCc2nc3ccccc3n21 ; strain or isolate: HE ; method: cytopathic effect ; value: 0.31 µM
CCN1c2cc(C)c(C)cc2N(C)S(=O)(=O)c2cccnc21 ; strain or isolate: NDK ; method: cytopathic effect ; value: 0.3 µM
c1cc(CN2CCCNCCNCCCNCC2)ccc1CN1CCCNCCNCCCNCC1 ; strain or isolate: NL4-3 ; method: p24 ; value: 0.003 µg/mL
Cc1cc(C#N)cc(C)c1Oc1nc(NC2CCN(Cc3cccc(C(N)=O)c3)CC2)nc2sccc12 ; strain or isolate: IIIB ; mutations: NNRTI-resistant (RT E138K) ; method: MTT ; value: 0.00869 µM
N=C1Sc2ncccc2C2=NCCCN12 ; strain or isolate: IIIB ; method: MTT ; value: 7.9 µM
Cc1ccccc1CNC(=O)[C@H]1N(C[C@@H](O)C[C@@H](Cc2ccccc2)C(=O)N[C@H]2c3ccccc3OC[C@H]2O)CSC1(C)C ; mutations: PR-V18C ; method: p24 ; value: <1 µM
COc1ccc(Br)cc1CCNC(=S)Nc1nccs1 ; strain or isolate: IIIB ; method: cytopathic effect ; value: 0.1 µM
Cc1ccc(S(=O)(=O)c2c(C(=O)NNCCO)[nH]c3ccc(Cl)cc23)c(C)c1 ; mutations: RT-K103N Y181C ; method: cytopathic effect / MTT ; value: 20 µM
CCOC(=O)C1CN(Cc2ccc(S(N)(=O)=O)cc2)CCC1Nc1nc(Oc2c(C)cc(C#N)cc2C)c2sccc2n1 ; strain or isolate: IIIB ; mutations: NNRTI-resistant (RT Y181C) ; method: MTT ; value: 0.186 µM
O=c1[nH]c(=O)n([C@H]2C=C[C@@H](CO)O2)cc1C#CCCO ; strain or isolate: IIIB ; method: RT activity ; value: >100 µM
Cc1ccnc2c1NC(=O)c1cccnc1N2C1CC1 ; strain or isolate: TIBO-resistant L100I (RT-L100I) ; mutations: RT-L100I ; method: cytopathic effect / MTT ; value: 0.71 µM
NC(N)=NCCCC(=O)NCC1OC(OC2C(NC(=O)CCCN=C(N)N)CC(NC(=O)CCCN=C(N)N)C(OC3CC(NC(=O)CCCN=C(N)N)C(O)C(CO)O3)C2O)C(O)C(O)C1O ; strain or isolate: AMD3100-resistant ; method: cytopathic effect / MTT ; value: >203 µM
COc1ccc(S(=O)(=O)N(CC(C)C)C[C@@H](O)[C@H](Cc2ccccc2)NC(=O)O[C@H]2CO[C@@H]3O[C@H]4OCC[C@H]4[C@@H]32)cc1 ; strain or isolate: NL4-3 ; mutations: L10F M46I I54V V82A ; method: p24 / luminescence ; value: >1 µM
Cc1cn([C@H]2C[C@H](N=[N+]=[N-])[C@@H](CO)O2)c(=O)[nH]c1=O ; strain or isolate: IIIB ; mutations: NNRTI-resistant (RT E138K) ; method: MTT ; value: 0.0073 µM
O=c1[nH]c(=O)n([C@H]2C=C[C@@H](CO)O2)cc1C#CCO ; strain or isolate: IIIB ; method: RT activity ; value: >100 µM
COc1c(O)c(I)c2c(c1OC)-c1c(c(I)c(O)c(OC)c1OC)C[C@H](C)[C@H](C)C2 ; strain or isolate: 1506-RS (RT-Y188L) ; mutations: RT-Y188L ; method: cytopathic effect / MTT ; value: >20 µM
N=C1Sc2cc(Br)ccc2C2=NCCCN12 ; strain or isolate: IIIB ; method: MTT ; value: 2.9 µM
CCNC(=O)[C@@H](NC(=O)Cc1ccccc1)[C@@H]1N[C@@H](C(=O)NCCNC(=O)[C@@H]2N[C@@H]([C@H](NC(=O)Cc3ccccc3)C(=O)NCC)SC2(C)C)C(C)(C)S1 ; strain or isolate: RF ; method: p24 ; value: 0.3 µM
CO[P@](=O)(c1cc(C)cc(/C=C/C#N)c1)c1c(C(N)=O)[nH]c2ccc(Cl)c(F)c12 ; strain or isolate: NL4-3 ; value: 0.002 µM
CC(C)CN(C[C@@H](O)[C@H](Cc1ccccc1)NC(=O)O[C@H]1CCOC1)S(=O)(=O)c1ccc(N)cc1 ; strain or isolate: NL4-3 ; mutations: M46I V82F I84V ; method: p24 / luminescence ; value: 0.5329 µM
CCc1cc(CCc2nc3c(F)ccc(F)c3o2)c(=S)[nH]c1C ; strain or isolate: IIIB ; method: p24 ; value: <0.15 µM
O=S(=O)(O)OC1C(OS(=O)(=O)O)C(OS(=O)(=O)O)C(OS(=O)(=O)O)C(OS(=O)(=O)O)C1OS(=O)(=O)O ; strain or isolate: NL4-3 ; mutations: GP120-K320Q ; method: cytopathic effect / MTT ; value: >250 µg/mL
S=C(NCCc1ccccn1)Nc1ccc(Br)cn1 ; strain or isolate: IIIB ; method: cytopathic effect / XTT ; value: 0.016 µM
CCC/C=C/c1ccc2c(c1)SC(=N)N1CCCN=C21 ; strain or isolate: IIIB ; method: MTT ; value: 0.47 µM
CCN1c2ncccc2N(C)C(=S)c2oc3cccnc3c21 ; strain or isolate: RF ; method: cytopathic effect ; value: 0.2 µM
CCC[C@@]1(CCc2ccccc2)CC(O)=C([C@H](CC)c2cccc(NS(=O)(=O)c3ccc(C(F)(F)F)cn3)c2)C(=O)O1 ; strain or isolate: NL4-3 ; mutations: L10F V32I M46I I54M A71V I84V ; method: p24 / luminescence ; value: >1 µM
C=Cc1ccc2c(c1)SC(=N)N1CCCN=C21 ; strain or isolate: IIIB ; method: MTT ; value: 4.6 µM
CCc1cc(CCc2nc3ccccc3o2)c(=O)[nH]c1C ; strain or isolate: IIIB ; method: p24 ; value: <0.05 µM
COC(=O)N1CCC2(CC1)CN=C1c3ccc(Br)cc3SC(=N)N1C2 ; strain or isolate: IIIB ; method: MTT ; value: 4.6 µM
CN(C)c1ccc2cc(S(=O)(=O)N3CCN(C[C@@H](O)C[C@@H](Cc4ccccc4)C(=O)N[C@H]4c5ccccc5C[C@H]4O)[C@H](C(=O)NC(C)(C)C)C3)ccc2n1 ; strain or isolate: IIIB ; method: p24 ; value: <0.0125 µM
Cc1ccnc2c1NC(=O)c1cccnc1N2C1CC1 ; mutations: RT-Y181C ; method: cytopathic effect / MTT ; value: 0.6 µM
CC1(C)S[C@H]([C@H](NC(=O)Cc2ccccc2)C(=O)NCc2ccccc2)N[C@H]1C(=O)N[C@H](Cc1ccccc1)[C@H](O)CC(=O)NCc1ccccc1 ; strain or isolate: RF ; method: syncytia ; value: 2.9 µM
C1CNCCNCCCN(CCCN2CCCNCCNCCCNCC2)CCNC1 ; strain or isolate: IIIB ; method: cytopathic effect / MTT ; value: 0.248 µM
Cc1cccc(S(=O)(=O)c2c(C(=O)NNCCO)[nH]c3ccc(Cl)cc23)c1 ; strain or isolate: IIIB ; method: cytopathic effect / MTT ; value: 0.007 µM
CCCCCCNC(=O)OCCCCCCNC(=O)OC1CCN(C(=O)Oc2ccc(Oc3ccccc3)cc2)CC1 ; strain or isolate: IIIB ; method: p24 / ELISA ; value: 1.31 µM
Cc1ccnc2c1NC(=O)c1cccnc1N2C1CC1 ; mutations: RT-K103N Y181C ; method: cytopathic effect / MTT ; value: >10 µM
N#C/C=C1/c2cc(S)cc([N+](=O)[O-])c2-c2c1cc(S(=O)(=O)NCc1ccccc1)cc2[N+](=O)[O-] ; strain or isolate: IIIB ; method: MTT / absorbance ; value: 72.64 µM
N=C1Sc2ccccc2C2=NCCCCN12 ; strain or isolate: IIIB ; method: MTT ; value: 3.3 µM
CC(=O)NC1=CS(=O)(=O)OC12[C@@H](COCc1ccccc1)O[C@@H](n1cc(C)c(=O)[nH]c1=O)[C@@H]2OC(C)=O ; strain or isolate: IIIB ; method: syncytia ; value: >160 µM
Cc1ccnc2c1NC(=O)c1cccnc1N2C1CC1 ; strain or isolate: 22(RT-L100I Y188H) ; mutations: RT-L100I Y188H ; method: cytopathic effect / XTT ; value: 14 µM
CCc1cc(CCc2nc3cccc(Cl)c3o2)c(=S)[nH]c1C ; strain or isolate: IIIB ; method: p24 ; value: <0.2 µM
Cc1cn([C@H]2C[C@H](N=[N+]=[N-])[C@@H](CO)O2)c(=O)[nH]c1=O ; strain or isolate: AMD3100-resistant ; method: cytopathic effect / MTT ; value: 0.005 µM
Cc1cn([C@H]2C[C@H](N=[N+]=[N-])[C@@H](CO)O2)c(=O)[nH]c1=O ; strain or isolate: T3-16(RT-Y181C) ; mutations: RT-Y181C ; method: cytopathic effect / XTT ; value: 0.006 µM
Cc1cnc(Nc2ccc(C#N)cc2)nc1C(O)c1ccc2ccccc2c1 ; mutations: K103N/Y181C ; method: MTT ; value: >6.1 µM
Fc1cccc(F)c1C1SCc2nc3ccccc3n21 ; strain or isolate: IIIB ; method: cytopathic effect ; value: 0.66 µM
CCc1csc(NC(=S)NCCc2ccccc2)n1 ; strain or isolate: IIIB ; method: cytopathic effect ; value: 0.24 µM
Cc1ccnc2c1NC(=O)c1cccnc1N2C1CC1 ; strain or isolate: IIIB ; method: cytopathic effect / MTT ; setting: 5 d ; value: 0.311 µM
S=C(NCCc1ccccc1)Nc1ccc(Br)cn1 ; strain or isolate: IIIB ; method: cytopathic effect ; value: 0.03 µM
CC(C)Oc1cccc(-c2ccc3c(c2)SC(=N)N2CCCN=C32)c1 ; strain or isolate: IIIB ; method: MTT ; value: 0.71 µM
Cc1cn([C@@H]2O[C@H](CO[Si](C)(C)C(C)(C)C)C3(OS(=O)(=O)C=C3N)[C@H]2O)c(=O)[nH]c1=O ; strain or isolate: IIIB ; method: syncytia ; value: >40 µM
Fc1cccc(F)c1[C@@H]1SCc2nc3ccccc3n21 ; strain or isolate: IIIB ; method: cytopathic effect ; value: 2.32 µM